DMS reactivity of the HIV-1 5' RNA in monomer and dimer

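Mutant RNA libraries with 1G, 2G or 3G starts, with or without cap, were folded at 37 °C for 30 min. High salt was 300 mM KCl and 5 mM MgCl2, low salt 40 mM KCl and 0.1 mM MgCl2; monomer and dimer were parted on a native gel. Gel slices were treated with 170 mM dimethyl sulfate for 15 min at 37 °C and read by mutational profiling against an ethanol control.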

The 5' region of HIV-1 NL4-3 RNA (positions 1-437):
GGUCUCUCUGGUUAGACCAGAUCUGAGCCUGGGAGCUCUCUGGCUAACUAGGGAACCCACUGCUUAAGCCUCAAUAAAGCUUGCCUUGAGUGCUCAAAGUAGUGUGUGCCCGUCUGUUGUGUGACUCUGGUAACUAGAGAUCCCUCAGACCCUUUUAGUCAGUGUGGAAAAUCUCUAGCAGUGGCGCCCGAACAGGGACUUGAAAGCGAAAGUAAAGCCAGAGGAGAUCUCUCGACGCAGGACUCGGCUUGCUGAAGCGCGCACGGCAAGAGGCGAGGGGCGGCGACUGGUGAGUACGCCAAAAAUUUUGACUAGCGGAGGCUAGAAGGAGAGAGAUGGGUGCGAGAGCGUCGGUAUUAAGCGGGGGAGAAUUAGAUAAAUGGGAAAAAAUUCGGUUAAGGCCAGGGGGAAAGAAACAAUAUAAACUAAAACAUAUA

Scale: normalised reactivity, A and C only; low values point to paired or protected bases, higher values to unpaired ones. Sample: 2G uncapped low-salt monomer. One numbering serves 1G, 2G and 3G. A position is written with its base.

With C29 (domain TAR) the assay gave 0.09.
With C36 (domain TAR) the assay gave 0.03.
With C38 (domain TAR) the assay gave 0.03.
With A46 (domain TAR) the assay gave 0.04.
With C48 (domain TAR) the assay gave 0.03.
With C57 (domain TAR) the assay gave 0.03.
With C60 (domain PolyA) the assay gave 0.41.
With C70 (domain PolyA) the assay gave 0.03.
With C72 (domain PolyA) the assay gave 0.08.
With A77 (domain PolyA) the assay gave 0.82.
With C84 (domain PolyA) the assay gave 0.42.
With A101 (domain PolyA) the assay gave 0.19.
With C109 (domain U5) the assay gave 0.13.
With C110 (domain U5) the assay gave 0.15.
With C111 (domain U5) the assay gave 0.28.
With A132 (domain PBS) the assay gave 0.54.
With C134 (domain PBS) the assay gave 0.14.
With C143 (domain PBS) the assay gave 0.03.
With C144 (domain PBS) the assay gave 0.03.
With C146 (domain PBS) the assay gave 0.12.
With A149 (domain PBS) the assay gave 0.12.
With A177 (domain PBS) the assay gave 0.24.
With C187 (domain PBS) the assay gave 0.03.
With C188 (domain PBS) the assay gave 0.06.
With A192 (domain PBS) the assay gave 0.79.
With C193 (domain PBS) the assay gave 0.81.
With A203 (domain PBS) the assay gave 0.49.
With A204 (domain PBS) the assay gave 0.69.
With C207 (domain PBS) the assay gave 0.42.
With A209 (domain PBS) the assay gave 0.43.
With A210 (domain PBS) the assay gave 0.54.
With A211 (domain PBS) the assay gave 0.38.
With A216 (domain PBS) the assay gave 0.55.
With C219 (domain antiPAS) the assay gave 0.03.
With A225 the assay gave 0.76.
With A227 (domain CU) the assay gave 0.30.
With C231 (domain CU) the assay gave 0.18.
With C233 (domain CU) the assay gave 0.30.
With A235 the assay gave 0.62.
With C236 the assay gave 0.48.
With A239 the assay gave 0.57.
With A242 the assay gave 0.83.
With C245 (domain SL1) the assay gave 0.27.
With C248 (domain SL1) the assay gave 0.05.
With C252 (domain SL1) the assay gave 0.23.
With A256 (domain SL1) the assay gave 0.83.
With C258 (domain SL1) the assay gave 0.31.
With C262 (domain SL1) the assay gave 0.36.
With A263 (domain SL1) the assay gave 0.22.
With C264 (domain SL1) the assay gave 0.45.
With C267 (domain SL1) the assay gave 0.14.
With A269 (domain SL1) the assay gave 0.44.
With C274 (domain SL1) the assay gave 0.68.
With A276 (domain SL1) the assay gave 1.05.
With C281 the assay gave 0.34.
With C284 (domain SL2) the assay gave 0.21.
With C287 (domain SL2) the assay gave 0.28.
With C299 (domain SL2) the assay gave 0.05.
With A301 the assay gave 0.25.
With C312 (domain SL3) the assay gave 0.10.
With A319 (domain SL3) the assay gave 0.88.
With C322 (domain SL3) the assay gave 0.03.
With A327 the assay gave 0.98.
With A330 the assay gave 0.87.
With A334 (domain AUG) the assay gave 0.50.
With A376 the assay gave 0.72.
With A379 the assay gave 0.56.
With A380 the assay gave 0.80.
With A387 the assay gave 0.22.
With A390 the assay gave 0.88.
With C403 the assay gave 0.03.
With A412 the assay gave 0.46.
With A414 the assay gave 0.44.
With A415 the assay gave 0.21.
With A421 the assay gave 0.34.
With A424 the assay gave 0.33.
With A429 the assay gave 0.67.
With A431 the assay gave 0.59.
With C432 the assay gave 0.85.
With A433 the assay gave 0.69.
With A435 the assay gave 0.48.

The measurements come from Ye et al. 2022 (doi:10.1038/s41594-022-00746-2).